# Article PMC7092418 (Genes and Environment, 2020)
# System: S. typhimurium TA100
# Test: Ames mutagenicity assay, strain TA100 (hisG46, pKM101)
# Details: slope of dose-response curve, S9 for AFB1, AF-2: only zero plus 2 first doses
substance,measurement,setting,value
Aflatoxin B1,Specific mutagenicity,"TA100, IPTG 0.2 mM in top agar",692 revertants/plate/nmole
same,Specific mutagenicity,"TA100, no IPTG",846 revertants/plate/nmole
